These results are taken from US9493769B2 (priority 2004, dated 2016).

Molecules are shown by their SMILES.

By IC50 is commonly meant the concentration at which inhibition is half-maximal. Low readings indicate greater potency in that assay, high ones weaker potency in that assay.

This assay deals with P#10 protease (viral protease in its precursor context amplified from patient P#10) (Human immunodeficiency virus type 1, UniProt P12497, cells depend on it, form not given). Nature of the assay: Yeast-based resistance test in liquid media, short HIV-1 protease precursor from patient P#10 expressed in BY4741 yeast. The assay is classed as cell-based. The following applies: BY4741 yeast transformants, living cells read at 600 nm, GraphPad Prism fit.

Turning to `Cc1cccc(C)c1OCC(=O)N[C@@H](Cc1ccccc1)[C@@H](O)C[C@H](Cc1ccccc1)NC(=O)[C@H](C(C)C)N1CCCNC1=O` [Lopinavir, lopinavir], the IC50 was > 100 mM.
